According to US20160101106A1, “METHODS FOR TREATING HCV INFECTION” (Inhibikase Therpeutics, Inc., priority 2013, published 2016):

tested on: HCVpp, Genotype 1b; type: cell-based, HCV; conditions: ratio of EC50 and CC50 (cytotoxicity in absence of virus), > = lower limit, highest concentration tested in parentheses

Row | SMILES | TI
1 | CC(C)(C)c1nc(-c2cccc(NS(=O)(=O)c3c(F)cccc3F)c2F)c(-c2ccnc(N)n2)s1 [GSK2118436/dabrafinib] | 1 (5 μM)
2 | Cn1c(Nc2ccc(C(F)(F)F)cc2)nc2cc(Oc3ccnc(-c4ncc(C(F)(F)F)[nH]4)c3)ccc21 [Raf265] | >5.6 (5 μM)
3 | CCCS(=O)(=O)Nc1ccc(F)c(C(=O)c2c[nH]c3ncc(-c4ccc(Cl)cc4)cc23)c1F [Zelboraf/PLX4032] | 1 (5 μM)
4 | CNC(=O)c1cc(Oc2ccc(NC(=O)Nc3ccc(Cl)c(C(F)(F)F)c3)cc2)ccn1 [sorafenib] | >2.8 (5 μM)
